Laboratory results reported in patent US20240115681A1 (priority 2022, published 2024).
In the oligonucleotide strings, read from the 5' end, every base follows the letter of its sugar. An asterisk marks phosphorothioate; unmarked linkages are phosphodiester. Other units and linkages are bracketed, terminal groups are in braces. A string of capitals states the bases alone. d = 2'-deoxy (DNA)

System: recombinant S protein
Design: species or system SARS-CoV-2
Conditions: in vivo

## CpG-2722 (DNA dG*dT*dT*dG*dT*dC*dG*dT*dT*dT*dT*dT*dT*dG*dT*dC*dG*dT*dT)
  anti-S protein IgG titer vs vehicle control: significantly higher anti-S protein IgG titer than that induced by the vehicle control
